Experimental data taken from patent publication US6962920B2, “Pyrimidine derivatives and methods of making and using these derivatives” (Duquesne University of the Holy Ghost, priority 1992, dated 2005).
Like-named read-outs stand apart in the source and are kept apart here.

Amino acid sequences for entries named in this document (tags omitted). Residues count along the entry.
UniProt Q07422, whole entry: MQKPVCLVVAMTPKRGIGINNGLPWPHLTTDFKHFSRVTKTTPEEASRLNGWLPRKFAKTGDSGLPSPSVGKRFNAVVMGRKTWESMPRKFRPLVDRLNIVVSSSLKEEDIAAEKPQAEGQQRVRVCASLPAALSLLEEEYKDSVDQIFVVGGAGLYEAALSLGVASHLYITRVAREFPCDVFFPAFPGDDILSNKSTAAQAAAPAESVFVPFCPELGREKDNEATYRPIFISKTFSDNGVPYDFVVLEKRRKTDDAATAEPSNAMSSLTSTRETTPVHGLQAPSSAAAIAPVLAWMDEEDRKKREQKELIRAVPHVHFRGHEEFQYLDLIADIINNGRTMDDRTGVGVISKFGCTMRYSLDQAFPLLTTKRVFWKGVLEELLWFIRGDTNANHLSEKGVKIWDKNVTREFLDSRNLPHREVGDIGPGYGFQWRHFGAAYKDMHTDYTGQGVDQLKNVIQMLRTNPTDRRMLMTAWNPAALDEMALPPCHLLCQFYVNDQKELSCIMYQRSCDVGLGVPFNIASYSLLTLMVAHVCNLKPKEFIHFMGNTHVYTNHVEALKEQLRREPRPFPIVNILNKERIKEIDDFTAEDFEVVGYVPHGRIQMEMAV
UniProt P16184, whole entry: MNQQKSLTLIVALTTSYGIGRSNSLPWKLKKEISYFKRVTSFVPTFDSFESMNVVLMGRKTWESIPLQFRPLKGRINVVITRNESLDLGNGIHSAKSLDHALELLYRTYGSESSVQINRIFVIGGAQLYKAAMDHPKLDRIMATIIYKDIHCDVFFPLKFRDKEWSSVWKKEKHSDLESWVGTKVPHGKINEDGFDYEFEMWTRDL
UniProt O30463, 1-181: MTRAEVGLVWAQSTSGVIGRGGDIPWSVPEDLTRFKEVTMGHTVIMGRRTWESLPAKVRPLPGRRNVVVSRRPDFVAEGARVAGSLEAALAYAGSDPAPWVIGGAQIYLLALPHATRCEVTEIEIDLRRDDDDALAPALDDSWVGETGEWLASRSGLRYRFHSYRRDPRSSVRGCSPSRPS
UniProt P0A884, whole entry: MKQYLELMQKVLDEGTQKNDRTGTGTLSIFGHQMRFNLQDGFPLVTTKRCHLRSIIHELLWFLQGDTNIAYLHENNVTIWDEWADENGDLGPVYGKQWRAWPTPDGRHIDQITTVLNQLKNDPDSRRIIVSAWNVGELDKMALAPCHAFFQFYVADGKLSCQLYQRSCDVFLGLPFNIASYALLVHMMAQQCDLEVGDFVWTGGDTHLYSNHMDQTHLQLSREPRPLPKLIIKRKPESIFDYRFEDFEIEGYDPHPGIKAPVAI
UniProt I6T9L7, 1-486: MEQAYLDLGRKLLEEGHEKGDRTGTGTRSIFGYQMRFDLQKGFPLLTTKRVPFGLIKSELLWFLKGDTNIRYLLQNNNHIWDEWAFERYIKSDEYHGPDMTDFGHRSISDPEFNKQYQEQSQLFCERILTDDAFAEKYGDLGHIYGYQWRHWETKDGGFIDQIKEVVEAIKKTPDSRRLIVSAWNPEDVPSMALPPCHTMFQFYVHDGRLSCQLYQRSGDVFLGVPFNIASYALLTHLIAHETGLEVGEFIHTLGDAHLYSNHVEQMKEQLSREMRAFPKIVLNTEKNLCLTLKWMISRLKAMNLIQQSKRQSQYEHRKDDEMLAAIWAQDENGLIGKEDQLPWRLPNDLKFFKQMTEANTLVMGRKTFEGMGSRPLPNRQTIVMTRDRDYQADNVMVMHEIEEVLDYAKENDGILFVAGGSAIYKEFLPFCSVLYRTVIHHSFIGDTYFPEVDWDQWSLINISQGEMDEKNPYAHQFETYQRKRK

Legend:
[1] = target: Tg DHFR (Toxoplasma gondii, UniProt Q07422)
[2] = target: T1, Pc DHFR (Pneumocystis carinii, UniProt P16184)
[3] = target: T1, Pc DHFR; remark: listed apart in the source
[4] = target: Ma DHFR (Mycobacterium avium, UniProt O30463); assay: Inhibition of M. avium DHFR
[5] = target: E-coli thymidylate synthase (ecTS) (Escherichia coli, UniProt P0A884); assay: Inhibition of E. coli thymidylate synthase; format: biochemical; conditions: read-out: TS IC50, E. Coli; Table 13
[6] = target: S. Faecium TS (Enterococcus hirae, UniProt I6T9L7); assay: Inhibition of S. faecium TS; format: biochemical; conditions: Table 13; for % in parentheses after the > value, S. Faecium TS: at the concentration given; for IC50: read-out: TS IC50, S. Faecium
[7] = Table 7, IC50 RL DHFR divided by IC50 Tg DHFR
[8] = read-out: Inhibitory Concentrations (IC50) Pc DHFR, Table 26
[9] = read-out: Inhibitory Concentrations (IC50) Tg DHFR, Table 26
[10] = read-out: Pc DHFR IC50, Table 7
[11] = Table 7, IC50 RL DHFR divided by IC50 Pc DHFR
[12] = read-out: DHFR IC50, Pc, Table 14

Which Selectivity Ratio: RL DHFR/Tg [1, 7] does the source give for `COc1ccc(OC)c(N(C)Cc2c[nH]c3nc(N)nc(N)c23)c1` here?
Its Selectivity Ratio: RL DHFR/Tg is over 4.

Which results are given for `COc1ccccc1CCc1c[nH]c2nc(N)nc(C)c12`?
IC50 [2, 8]: 36 µM; Selectivity Ratio: RL DHFR/Tg ([1]; Table 26): 0.41; IC50 [1, 9]: 4.4 µM; Selectivity Ratio: RL DHFR/Pc DHFR ([3]; Table 26): 0.05

For `Nc1nc(N)c2c(CNc3ccc(O)cc3)c[nH]c2n1`, which IC50 [2, 10] is on record?
The IC50 was 81 µM.

What about the Selectivity Ratio: RL DHFR/Tg [1, 7] of the same compound?
Its Selectivity Ratio: RL DHFR/Tg is 3.

What about the IC50 ([1]; read-out: Tg DHFR IC50, Table 7) of the same compound?
The IC50 was 1.4 µM.

What about the Selectivity Ratio: RL DHFR/Pc DHFR [3, 11] of the same compound?
Its Selectivity Ratio: RL DHFR/Pc DHFR is 0.05.

What does the source list for `COc1cc(CCc2cn(Cc3ccccc3)c3nc(N)nc(C)c23)cc(OC)c1OC`?
% inhibition Pc DHFR ([2]; @ 35 μM): 10% @; % inhibition Tg DHFR ([1]; @ 35 μM): 13% @ 35 μM

`Nc1nc(N)c2c(-c3ccccc3)coc2n1` was tested. Which IC50 ([2]; read-out: Pc DHFR IC50, Table 16) did it give?
The IC50 was over 27.9 µM.

And the IC50 ([1]; read-out: Tg DHFR IC50, Table 16)?
The IC50 was over 27.9 µM.

Which selectivity ratio Ma DHFR versus RL DHFR [4] does the source give for `Nc1nc(N)c2c3c(oc2n1)CN(Cc1ccc(C(=O)N[C@@H](CCC(=O)O)C(=O)O)cc1)CC3` here?
Its selectivity ratio Ma DHFR versus RL DHFR is 88.

And the Selectivity ratio RL/Tg ([1]; Table 20)?
Its Selectivity ratio RL/Tg is 4.

And the Selectivity ratio RL/Pc ([3]; Table 20)?
The Selectivity ratio RL/Pc was 7.9.

What does the source list for `COc1ccc(SCc2c[nH]c3nc(N)nc(N)c23)cc1OC`?
Selectivity Ratio: RL DHFR/Tg [1, 7]: 6.42; Selectivity Ratio: RL DHFR/Pc DHFR [3, 11]: 1.5

With `CN(Cc1c[nH]c2nc(N)nc(N)c12)c1cccc2ccccc12` as the compound, how does the Selectivity Ratio: RL DHFR/Tg [1, 7] read?
The Selectivity Ratio: RL DHFR/Tg was 9.43.

And the Selectivity Ratio: RL DHFR/Pc DHFR [3, 11]?
The Selectivity Ratio: RL DHFR/Pc DHFR was 0.04.

Which results are given for `Cc1[nH]c2nc(N)[nH]c(=O)c2c1Sc1ccccc1`?
IC50 [5]: > 30 µM; % in parentheses after the > value, S. Faecium TS [6]: 20%; IC50 [6]: > 30 µM

With `Cc1[nH]c2nc(N)[nH]c(=O)c2c1Sc1ccc(Cl)c(Cl)c1` as the compound, how does the IC50 [2, 12] read?
Its IC50 is over 20 µM.

And the “% in parentheses after the > value, S. Faecium TS” value [6]?
Its value is 31%.

`Cc1nc(N)nc2c1c(CCc1ccccc1)cn2Cc1ccccc1` was tested. Which IC50 [2, 8] did it give?
The IC50 was 38 µM.

What about the “% inhibition Tg DHFR” value ([1]; @ 75 μM) of the same compound?
The value was 17% @ 75 μM.

And the Selectivity Ratio: RL DHFR/Pc DHFR ([3]; Table 26)?
The Selectivity Ratio: RL DHFR/Pc DHFR was 2.55.

How did the “% inhibition Pc DHFR” value ([2]; @ 40 μM) turn out when `COc1cccc(CCc2c[nH]c3nc(N)nc(C)c23)c1` was run?
Its value is 18% @.

And the Selectivity Ratio: RL DHFR/Tg ([1]; Table 26)?
Its Selectivity Ratio: RL DHFR/Tg is 0.62.

What about the IC50 [1, 9] of the same compound?
The IC50 was 6 µM.

What about the Selectivity Ratio: RL DHFR/Pc DHFR ([3]; Table 26) of the same compound?
The Selectivity Ratio: RL DHFR/Pc DHFR was under 0.11.

`CN(Cc1c[nH]c2nc(N)nc(N)c12)c1ccc(Cl)c(Cl)c1` was tested. Which IC50 [2, 10] did it give?
Its IC50 is 28.9 µM.

What about the Selectivity Ratio: RL DHFR/Tg [1, 7] of the same compound?
The Selectivity Ratio: RL DHFR/Tg was 3.

And the Selectivity Ratio: RL DHFR/Pc DHFR [3, 11]?
The Selectivity Ratio: RL DHFR/Pc DHFR was 0.11.

How did the IC50 ([2]; read-out: Inhibitory Concentrations (IC50) Pc DHFR, Table 30) turn out when `Nc1nc(N)c2c(CNc3ccc4c(c3)Cc3ccccc3-4)coc2n1` was run?
The IC50 was 36.2 µM.

How did the IC50 [2, 12] turn out when `Cc1[nH]c2nc(N)[nH]c(=O)c2c1Sc1ccc(Cl)cc1` was run?
The IC50 was 40 µM.

What about the IC50 [6] of the same compound?
Its IC50 is 30 µM.

`COc1ccc(Sc2c(C)[nH]c3nc(N)[nH]c(=O)c23)cc1OC` was tested. Which “% in parentheses after the > value, S. Faecium TS” value [6] did it give?
Its value is 12%.

Which results are given for `Cc1[nH]c2nc(N)[nH]c(=O)c2c1Sc1ccc2ccccc2c1`?
IC50 [5]: > 25 µM; % in parentheses after the > value, S. Faecium TS [6]: 0%; IC50 [6]: > 25 µM

For `Nc1nc(N)c2c(CNc3cccc4cc5ccccc5cc34)coc2n1`, which “% inhibition Pc DHFR” value ([2]; @ 51 μM) is on record?
Its value is 50% @ 51 μM.

How did the “% inhibition Pc DHFR” value ([2]; @ 28 μM) turn out when `Cc1nc(N)nc2[nH]cc(CCc3ccccc3)c12` was run?
The value was 28% @.

What about the Selectivity Ratio: RL DHFR/Tg ([1]; Table 26) of the same compound?
The Selectivity Ratio: RL DHFR/Tg was 1.

What about the IC50 [1, 9] of the same compound?
The IC50 was 6.3 µM.

For `COc1ccc(CCc2c[nH]c3nc(N)nc(C)c23)cc1`, which “% inhibition Pc DHFR” value ([2]; @ 11 μM) is on record?
Its value is 0% @.

And the IC50 [1, 9]?
Its IC50 is 12.2 µM.

What does the source list for `Nc1nc(N)c2c(CSc3ccc4ccccc4c3)c[nH]c2n1`?
Selectivity Ratio: RL DHFR/Tg [1, 7]: 9.01; Selectivity Ratio: RL DHFR/Pc DHFR [3, 11]: 0.09

`Nc1nc2[nH]cc(CNc3cc(Cl)ccc3Cl)c2c(=O)[nH]1` was tested. Which IC50 ([2]; read-out: pcDHFR IC50, Table 22) did it give?
Its IC50 is over 25 µM.

What about the rl/tg ([1]; Table 22, selectivity ratio) of the same compound?
Its rl/tg is over 38.

Which Selectivity Ratio: RL DHFR/Tg [1, 7] does the source give for `Nc1nc(N)c2c(CSc3cccc4ccccc34)c[nH]c2n1` here?
Its Selectivity Ratio: RL DHFR/Tg is 3.7.

And the Selectivity Ratio: RL DHFR/Pc DHFR [3, 11]?
The Selectivity Ratio: RL DHFR/Pc DHFR was 0.28.

What does the source list for `Nc1nc(N)c2c(CNc3cccc4ccccc34)c[nH]c2n1`?
Selectivity Ratio: RL DHFR/Tg [1, 7]: 53.9; Selectivity Ratio: RL DHFR/Pc DHFR [3, 11]: 0.2
